Consider one molecule from patent publication US20040072369A1, “Methods for assaying for urea and kits for use therein” (priority 2002, published 2004).

The nature of this data set: Frequency-domain Trp fluorescence lifetime of nUreR Trp mutants with and without urea. It is filed as binding.

B1: Y151W nUreR (protein, UniProt Q02458 1-293, looked up, variant Y151W)
Urease operon transcriptional …: MEYKHILSSNQISLKTFYIENPMIAIVYGAKGEICINGQTITVTTNLTLIIPKYSQVSCDVTNFFPTKPIELHTLVLSETELQSVFSLLKPLIKSGAPITRHLPDYHLSTPEVVKTNFTLLQQCLPLEHGTPSQETLFMQQSLFFILLAVWHEGVDILNIFRFNYDEPKNQAITHLITQDPQRKWHLEDVAKTLYTTPSTLRRHLSKEGVSFCQLLLDVRMPIALNYLTFSNYSVFQISHRCGFGSNAYFCDAFKRKYGMTPSQFRTQSRQANDPNAIATMASQNDESIKKVF
Turning to B1, the “<τ> Trp fluorescence lifetime, 150 mM urea” value (150 mM urea) was found to be 1.95 ns. Moreover, for the setting “no urea”, the “<τ> Trp fluorescence lifetime, No Urea” value is 1.98 ns.
